The labels stand for the following.
B1: BD57-0317 (protein)
chain 1: AQLVESGGGLVQPGGSLRLSCSASGFTFSSYSMYWVRQAPGRELEYVSAISRHGDLTYYSDSVKGRFSISRDNSQNTLDLQMSSLRAEDTALYYCVKDIGKQLSYDVFEIWGRGTMVTVSS
chain 2: DIQMTHSPSSLSASVGDRVTITCRTSQSISTYLNWYQQKPGSAPKLLIYGASSLRSGVPSRFSGSGSGTEFTLTINTLQPEDFATYYCQQSYISPPTFGQGTKVEIK
B2: BD-498 (protein)
chain 1: EVQLVESGGGLVQPGGSLRLSCAASGFTVSRNYMSWVRQAPGKGLEWVSVIYSGGTTHYADSVKGRFTISRHNSKNTLYLQMNSLRAEDTAVYYCARDLVVYGMDVWGQGTTVTVSS
chain 2: DIQLTQSPSFLSASVGDRVTITCRASQGISSYLAWYQQKPGKAPKLLIYAASTLQSGVPSSFSGSGSGTEFTLTISSLQPEDFATYYCQQLNSYPLTFGGGTKVEIK
B3: BD57-0306 (protein)
chain 1: QVQLQESGPGLVKPSQTLSLTCTVSGGSLISAYYYWSWIRQRPGEGLEWIGYIYNSGNTYYNPSLKSRVTISVDTSTNEISLKLTSVTAADTAVYFCARDFGGNANYFGYWGQGTPVTVSS
chain 2: DIQMTQSPASLSASVGDRVTITCQASQDIRKSLSWYQQKPGIAPNLLIYDASNLETGVPSRFSGSGSGTEFTFTISSLQPEDIATYYCQQYDNLPITFGQGTRLETK
B4: BD57-0326 (protein)
chain 1: QVQLVQSGAEVKKPGASVRVSCKASGYTFIDYYIHWVRQTPGQGLEWMGWIDPKSGGTNYAKNFRARVAMTRDTSINTVYMDLSRLRSDDTAVFYCARDTTATWSDGEVLDYWGQGTVVTVSS
chain 2: DIQMTQSPSSLSASVGDRITITCRASQSINRNLNWYQQKPGKAPNLLIYGASSLQAGVPSRFSGSGSGTDFTLTISSLQLEDLATYYCQQSYSTPPLTFGGGTKVEIK
B5: BD57-0323 (protein)
chain 1: QVQLVESGGGVVQPGKSLRLSCASSGFTFRSYTMHWVRQVPGKGLEWVAVISNDGRIKDYADIVKGRFTISRDNSKNTLYLEMNSLRTEDTAIYYCARDSENTMIVDCFQHWGQGALVTVSS
chain 2: DIQMTQSPSSLSASVGDRVTISCRASQSITNYLNWYQQKPGKAPKLLIYAASSLQSGVPSRFSGSGSGTDFTLTITNLQPEDFATYYCQQSYTTFMYTFGQGTTLDIK
B6: BD57-0319 (protein)
chain 1: EVQLEESGGALVQPGGSLRLSCAASGFTLSEDDMHWVRQTSGKRLEWVSVIGTAGDTYYADSVKGRFTISRDNVKNSLYLHMNNLRAGDTAVYFCTRGSVTTKGLYHYYYMDVWGKGTTVTVSS
chain 2: DIQMTQSPSSLSASVGDRVTITCRASQSISTYLNWYQQKPGKAPKLLIYAASSLQSGIPSRFSGSGSGTEFTLTISSLQPEDFATYYCQQSYIMPSWTFGQGTKVEIK
B7: BD57-0320 (protein)
chain 1: EVQLVESGGGLVQPGRSLRLSCAASGFTFDDYAMHWVRQAPGKGLEWVSGIPWHSGGMVYADSVQGRFTISRDNAKNSLYLQMNSLGPEDTALYYCAKGGTRNREKWVYFDYWGQGTLVTVSS
chain 2: EIVMTQSPATLSVSPGERATLSCRASQSVSSNLAWYQQKPGQAPRLLIYGASTRATGIPARFSGSGSGTEFTLTISSLQSEDFAVYYCQQYNNWPPGITFGQGTRLEIK

Human monoclonal antibodies against the spike receptor-binding domain (heavy:light variable regions). IC50 against pseudoviruses bearing the spike of naturally observed variants; lower = stronger; >10 µg/ml means not reached at the top dose. No active / inactive call. The stated detection limit is 0.0005 µg/ml; values near or below 0.001 µg/ml lie at the floor of the assay.

In the first experiment the target is SARS-CoV-2 Omicron BA.1 spike pseudovirus. In words: pseudovirus neutralization IC50; higher = weaker neutralization. On the procedure:
(§1)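 Single-round VSV luciferase pseudovirus mixed with antibody dilutions for 1 h and put on Huh-7 cells for about a day; IC50 from the dose curve.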
For B1, the “pseudovirus neutralization IC50” value came out at 4.48 µg/mL.

On to B2, for which the “pseudovirus neutralization IC50” value is > 10 µg/mL.

B3: the “pseudovirus neutralization IC50” value came out at 2.28 µg/mL.

B4: the “pseudovirus neutralization IC50” value turned out to be 0.243 µg/mL.

For B5, the “pseudovirus neutralization IC50” value is > 10 µg/mL.

B6: the “pseudovirus neutralization IC50” value is 3.39 µg/mL.

Turning to B7, the “pseudovirus neutralization IC50” value came out at 2.38 µg/mL.

In the next experiment the target is SARS-CoV-2 Omicron BA.2 spike pseudovirus. Described as above. On the procedure: as §1
For B1, the “pseudovirus neutralization IC50” value turned out to be 3.34 µg/mL.

With B2, the “pseudovirus neutralization IC50” value was > 10 µg/mL.

As to B3, the “pseudovirus neutralization IC50” value came to 3.32 µg/mL.

In the case of B4, the “pseudovirus neutralization IC50” value was found to be 0.493 µg/mL.

With B5, the “pseudovirus neutralization IC50” value is > 10 µg/mL.

As to B6, the “pseudovirus neutralization IC50” value came out at 3.82 µg/mL.

For the molecule B7, the “pseudovirus neutralization IC50” value is 1.88 µg/mL.

A further experiment concerns the target SARS-CoV-2 Omicron BA.2.75 spike pseudovirus. Described as above. As to the method:
as §1
Regarding B1, the “pseudovirus neutralization IC50” value is 2.72 µg/mL.

B2: the “pseudovirus neutralization IC50” value was > 10 µg/mL.

As for B3, the “pseudovirus neutralization IC50” value worked out at 2.63 µg/mL.

As to B4, the “pseudovirus neutralization IC50” value was 0.107 µg/mL.

With B5, the “pseudovirus neutralization IC50” value was > 10 µg/mL.

On to B6, for which the “pseudovirus neutralization IC50” value worked out at 3.23 µg/mL.

As to B7, the “pseudovirus neutralization IC50” value is 2.86 µg/mL.

Another experiment has as its target SARS-CoV-2 Omicron BA.5 spike pseudovirus. The description is as above. On the procedure: as §1
As for B1, the “pseudovirus neutralization IC50” value turned out to be 2.68 µg/mL.

With B2, the “pseudovirus neutralization IC50” value is > 10 µg/mL.

Turning to B3, the “pseudovirus neutralization IC50” value turned out to be 7.47 µg/mL.

As to B4, the “pseudovirus neutralization IC50” value stood at 0.0331 µg/mL.

Regarding B5, the “pseudovirus neutralization IC50” value was > 10 µg/mL.

For the molecule B6, the “pseudovirus neutralization IC50” value amounted to 3.08 µg/mL.

B7: the “pseudovirus neutralization IC50” value came to 4.31 µg/mL.

The target in a further experiment is SARS-CoV-2 Omicron BQ.1.1 spike pseudovirus. The experiment is described as above. On the procedure: as §1
For B1, the “pseudovirus neutralization IC50” value is 3.81 µg/mL.

For B2, the “pseudovirus neutralization IC50” value was > 10 µg/mL.

In the case of B3, the “pseudovirus neutralization IC50” value amounted to 5.06 µg/mL.

Take B4: the “pseudovirus neutralization IC50” value is > 10 µg/mL.

B5: the “pseudovirus neutralization IC50” value is > 10 µg/mL.

Consider B6, for which the “pseudovirus neutralization IC50” value came to 2.44 µg/mL.

For B7, the “pseudovirus neutralization IC50” value was 3.56 µg/mL.

Another experiment concerns the target SARS-CoV-2 Omicron XBB spike pseudovirus. The experiment is described as above. As to the method:
as §1
For B1, the “pseudovirus neutralization IC50” value stood at 2.31 µg/mL.

Consider B2, for which the “pseudovirus neutralization IC50” value was > 10 µg/mL.

For B3, the “pseudovirus neutralization IC50” value is 4.2 µg/mL.

As to B4, the “pseudovirus neutralization IC50” value is > 10 µg/mL.

Take B5: the “pseudovirus neutralization IC50” value is > 10 µg/mL.

With B6, the “pseudovirus neutralization IC50” value is 4.98 µg/mL.

On to B7, for which the “pseudovirus neutralization IC50” value came to 3.94 µg/mL.

The target in a further experiment is SARS-CoV-2 early D614G spike pseudovirus. The description is as above. As to the method:
as §1
Take B1: the “pseudovirus neutralization IC50” value is > 10 µg/mL.

On to B2, for which the “pseudovirus neutralization IC50” value came to 0.0626 µg/mL.

With B3, the “pseudovirus neutralization IC50” value is > 10 µg/mL.

Consider B4, for which the “pseudovirus neutralization IC50” value was 0.0249 µg/mL.

B5: the “pseudovirus neutralization IC50” value was > 10 µg/mL.

Regarding B6, the “pseudovirus neutralization IC50” value amounted to 8.68 µg/mL.

For the molecule B7, the “pseudovirus neutralization IC50” value is 1.77 µg/mL.

The record behind these values is the supplement of paper PMC9931576.
